Measured values from several laboratories, pooled; numbers as filed in NIAID ChemDB.

Shared fields: enzyme or target tests

ICn is the concentration giving n% inhibition.

| structure | target | strain or isolate | measure | method | dose | species | value |
|---|---|---|---|---|---|---|---|
| Nc1nc(-c2ccc(NC(=O)CNCc3ccccc3)cc2)cs1 | Helicase | - | IC50 | - | - | Herpes simplex virus 1 | 8.3 µM |
| Cc1c(NC(=O)OC(C)(C)C)ccc2nc(N3CCCC3(OCc3ccccc3)C(=O)N(C)CCc3ccncc3)oc(=O)c12 | Protease | - | IC50 | - | - | Herpes simplex virus 1 | >20 µM |
| O=c1[nH]c(=O)n([C@@H]2O[C@H](CO)[C@@H](O)[C@@H]2O)cc1/C=C/Br | DTHD kinase | KOS | Ki | - | - | Herpes simplex virus 1 | 0.94 µM |
| C/C=C/c1cn([C@H]2C[C@H](O)[C@@H](CO)O2)c(=O)[nH]c1=O | Thymidine kinase | 91075 | inhibition | - | 5 µM | Herpes simplex virus 1 | <0% |
| Cc1c(NC(=O)OC(C)(C)C)ccc2nc(N(CCc3ccccc3)C(=O)N(C)CCc3cccnc3)oc(=O)c12 | Protease | - | IC50 | - | - | Herpes simplex virus 1 | 0.8 µM |
| CC[C@@H](NC(=O)[C@@H](NC(=O)[C@H](CC(=O)C(C)(C)C)NC(=O)[C@@H](NC(=O)NC1[C@H](C)CCC[C@@H]1C)C(C)(C)C)C1(C(=O)O)CCCC1)C(C)(C)C | Ribonucleotide reductase | - | IC50 | radioligand binding / binding | - | Herpes simplex virus 2 | <0.001 µM |
| C#C[C@H]1O[C@@H](n2cc(C)c(=O)[nH]c2=O)C[C@@H]1O | Thymidine kinase | B3 | IC50 | - | - | Herpes simplex virus 1 | 7 µM |
| CC(C)C/C(=N\NC(=S)NNC(=S)Nc1ccccc1Cl)c1ccccn1 | Ribonucleotide reductase | - | IC50 | - | - | Herpes simplex virus 1 | >5 µM |
| Nc1nc(-c2ccc(NC(=O)CN(CC3CCCCC3)C(=O)COc3ccccn3)cc2)cs1 | Helicase-primase | KOS | IC50 | - | - | Herpes simplex virus 1 | 0.77 µM |
| CC[C@@H](NC(=O)[C@@H](NC(=O)[C@@H](CC(=O)[C@@H](NC(=O)NC1[C@H](C)CCC[C@@H]1C)C(C)(C)C)CC(=O)N1CCCC1)C1(C(=O)O)CCCC1)C(C)(C)C | Ribonucleotide reductase | - | IC50 | radioligand binding / binding | - | Herpes simplex virus 2 | <0.001 µM |
| O=c1[nH]c(=O)n([C@@H]2O[C@H](CO)[C@@H](O)[C@@H]2O)cc1/C=C/Br | Thymidine kinase | 91075 | inhibition | - | 5 µM | Herpes simplex virus 1 | <0% |
| CCN(C(=O)N(C)CCc1ccccn1)c1nc2ccc(NC(=O)CCCNC(=O)c3cccnc3)c(C)c2c(=O)o1 | Protease | - | IC50 | - | - | Herpes simplex virus 1 | 0.9 µM |
| C/C(=N\NC(=S)NNC(=S)NCCCN1CCOCC1)c1ccccn1 | Ribonucleotide reductase | - | IC50 | - | - | Herpes simplex virus 1 | >5 µM |
| Cc1c(NC(=O)OC(C)(C)C)ccc2nc(N(CCc3ccccc3)C(=O)NCc3ccncc3)oc(=O)c12 | Protease | - | IC50 | - | - | Herpes simplex virus 1 | >20 µM |
| Nc1nc(=O)n([C@@H]2O[C@H](CO)[C@@H](O)[C@@H]2F)cc1I | DTHD kinase | 333 | Ki | - | - | Herpes simplex virus 2 | 6.59 µM |
| CNC(=S)NNC(=S)N/N=C(\C)c1ccccn1 | Ribonucleotide reductase | - | IC50 | - | - | Herpes simplex virus 1 | >5 µM |
| O=c1[nH]cnc2c1ncn2[C@@H]1O[C@H](CO)[C@@H](O)[C@H]1O | DNA polymerase | - | IC50 | - | - | Herpes simplex virus 1 | <2000 µM |
| C[C@H](c1ccccc1)N(CC(=O)Nc1ccc(-c2csc(N)n2)cc1)C(=O)Cc1ccncc1 | Helicase-primase | KOS | IC50 | - | - | Herpes simplex virus 1 | 0.98 µM |
| Nc1nc2c(ncn2[C@@H]2O[C@H](COP(=O)(O)O)[C@@H](O)[C@H]2O)c(=O)[nH]1 | DNA polymerase | - | inhibition | - | 2000 µM | Herpes simplex virus 1 | 47.9% |
| Nc1nc2c(ncn2COCCOP(=O)(O)OP(=O)(O)OP(=O)(O)O)c(=O)[nH]1 | DNA polymerase | - | Ki | - | - | Herpes simplex virus 2 | 0.07 µM |
| Cc1c(NC(=O)OC(C)(C)C)ccc2nc(N(CCc3ccccc3)C(=O)NCc3ccccn3)oc(=O)c12 | Protease | - | IC50 | - | - | Herpes simplex virus 1 | 0.5 µM |
| C/C(=N\NC(=S)NNC(=S)Nc1cccc(C#N)c1)c1ccccn1 | Ribonucleotide reductase | - | IC50 | - | - | Herpes simplex virus 1 | >5 µM |
| CCN(C(=O)N(C)CCc1ccccn1)c1nc2ccc(NC(=O)CCCNC(=O)OCc3ccccc3)c(C)c2c(=O)o1 | Protease | - | IC50 | - | - | Herpes simplex virus 1 | 0.2 µM |
| Cc1cn([C@@H]2O[C@H](CO)[C@@H](O)[C@@H]2Cl)c(=O)nc1N | DTHD kinase | 333 | Ki | - | - | Herpes simplex virus 2 | 29.24 µM |
| Nc1nc(N)c2ncn([C@@H]3O[C@H](COP(=O)(O)OP(=O)(O)O)[C@@H](O)[C@H]3O)c2n1 | DNA polymerase | - | IC50 | - | - | Herpes simplex virus 1 | <2000 µM |
| C/C=C/c1cn([C@@H]2O[C@H](CO)[C@@H](O)[C@@H]2O)c(=O)[nH]c1=O | Thymidine kinase | 91075 | inhibition | - | 100 µM | Herpes simplex virus 1 | <0% |
| CC[C@@H](N(C)C(=O)[C@@H](NC(=O)[C@@H](CC(=O)[C@@H](NC(=O)[C@H](C(C)C)N(C)C(=O)[C@H](C)CC1CCCCC1)C(C)(C)C)CC(=O)C(C)(C)C)C1(C(=O)O)CCCC1)C(C)(C)C | Ribonucleotide reductase | - | IC50 | - | - | Herpes simplex virus 1 | 0.147 µM |
| O=c1ccn([C@@H]2O[C@H](COP(=O)(O)O)[C@@H](O)[C@H]2O)c(=O)[nH]1 | DNA polymerase | - | IC50 | - | - | Herpes simplex virus 1 | <2000 µM |
| CCCC(CCC)NC(=O)N[C@H](C(=O)C[C@@H](CC(=O)C(C)(C)C)C(=O)N[C@H](C(=O)N[C@H](CC)C(C)(C)C)C1(C(=O)O)CCCC1)C(C)(C)C | Ribonucleotide reductase | - | IC50 | radioligand binding / binding | - | Herpes simplex virus 1 | <0.001 µM |
| CCN(C(=O)N(C)CCc1ccccn1)c1nc2ccc(NC(=O)CCCNC(=O)c3cnccc3N(C)C)c(C)c2c(=O)o1 | Protease | - | IC50 | - | - | Herpes simplex virus 1 | 0.4 µM |
| O=c1[nH]c(=O)n([C@@H]2O[C@H](CO)[C@@H](O)[C@@H]2F)cc1I | DTHD kinase | KOS | Ki | - | - | Herpes simplex virus 1 | 0.68 µM |
| Cc1c(NC(=O)OC(C)(C)C)ccc2nc(N(CCCc3ccccc3)C(=O)NCc3cccnc3)oc(=O)c12 | Protease | - | IC50 | - | - | Herpes simplex virus 1 | >20 µM |
| Nc1nc(-c2ccc(NC(=O)CCN(C(=O)c3cccnc3)C3Cc4ccccc4C3)cc2)cs1 | Helicase-primase | F | IC50 | - | - | Herpes simplex virus 1 | 2.6 µM |

Again, the opening 4 rows:

structure | target | strain or isolate | measure | method | dose | species | value
Nc1nc(-c2ccc(NC(=O)CNCc3ccccc3)cc2)cs1 | Helicase | - | IC50 | - | - | Herpes simplex virus 1 | 8.3 µM
Cc1c(NC(=O)OC(C)(C)C)ccc2nc(N3CCCC3(OCc3ccccc3)C(=O)N(C)CCc3ccncc3)oc(=O)c12 | Protease | - | IC50 | - | - | Herpes simplex virus 1 | >20 µM
O=c1[nH]c(=O)n([C@@H]2O[C@H](CO)[C@@H](O)[C@@H]2O)cc1/C=C/Br | DTHD kinase | KOS | Ki | - | - | Herpes simplex virus 1 | 0.94 µM
C/C=C/c1cn([C@H]2C[C@H](O)[C@@H](CO)O2)c(=O)[nH]c1=O | Thymidine kinase | 91075 | inhibition | - | 5 µM | Herpes simplex virus 1 | <0%

Conditions beyond the fields shown may differ between rows. Blank or dashed fields: not listed here. Inhibition is in % at the dose shown (toxicity tests: loss of growth or viability).